Assays:
[1] = target: purified soluble αvβ3 integrin (Millipore), not stated, P06756 31-992; P05106 27-718
[2] = target: purified soluble αvβ5 integrin (Millipore), not stated, P06756 31-992; P18084 24-719
[3] = target: soluble recombinant α5β1 integrin (R&D Systems), not stated, P08648 42-995; P05556 21-728

Substance: Vicrostatin (VCN), recombinant chimeric disintegrin
- Kd [1]: 7.4 nM
- Kd [2]: 41.2 nM
- Kd [3]: 15.2 nM
